Measured values from several laboratories, pooled; numbers as filed in NIAID ChemDB.

Shared fields: whole-cell or culture tests; organism: Human cytomegalovirus; read by: plaque count; endpoint: EC50

Rows are shuffled and stem from different studies. ECn: concentration that inhibits the pathogen or its effect by n%. An empty or dashed field is not shown.

compound | strain or isolate | cells | value
COc1cccc(N2CCN(C3=Nc4c(F)cccc4[C@H](CC(=O)O)N3c3cc(C(F)(F)F)ccc3OC)CC2)c1 | Clinical isolate 11 |  | 0.0011 µM
O=C(NCc1ccc(Cl)cc1)c1c[nH]c2ccc(C#CCO)cc2c1=O | NEW |  | 1.2 µM
CCCCCCCCCCCCCCCCCCOCCOP1(=O)CO[C@@H](Cn2ccc(N)nc2=O)CO1 | C8914-6 drug-resistant mutant | MRC-5 | 0.0045 µM
Nc1ncnc2c1ncn2C=C1CC1CO | AD169 | HFF | 1.3 µM
Nc1nc2c(ncn2COC(CO)CO)c(=O)[nH]1 | Toledo | HFF | 6.9 µM
Nc1nc2c(ncn2COC(CO)CO)c(=O)[nH]1 | C8704 (ganciclovir-resistant) | MRC-5 | 7.6 µg/mL
Nc1ccn(C[C@H]2COP(=O)(O)CO2)c(=O)n1 | GDGP53 (drug-resistant mutant) | MRC-5 | 15.9 µM
Nc1ccn(C[C@@H](CO)OCP(=O)(O)O)c(=O)n1 | Acyclovir-resistant | HEL | 0.63 µM
OC[C@H]1O[C@@H](n2c(Br)nc3cc(Cl)c(Cl)cc32)[C@H](O)[C@@H]1O | AD169 | HFF | 0.4 µM
Nc1nc2c(ncn2C=C2CC2CO)c(=O)[nH]1 | C8914-6 | HFF | 10.3 µM
Nc1nc2c(ncn2C=C2CC2CO)c(=O)[nH]1 | VR5611 (ganciclovir-susceptible) |  | 1.9 µM
O[C@@H]1[C@H](O)[C@H](O)CO[C@H]1n1c(Br)nc2cc(Cl)c(Cl)cc21 | 1117R (drug-resistant) | HFF | 3.5 µM
Nc1nc(NC2CC2)c2ncn(C=C3CC3CO)c2n1 | DAVIS | HFF | 2.2 µM
Nc1ccn(C[C@@H](CO)OCP(=O)(O)O)c(=O)n1 | P8 ganciclovir-sensitive | MRC-5 | 0.4 µg/mL
O=C(O)P(=O)(O)O | AD169 | HEL | 61.6 µM
CCCCCCCCCCCCCCCCOCCCOP(=O)(O)CO[C@H](CO)Cn1ccc(N)nc1=O | DAVIS | MRC-5 | 0.00095 µM

Again, the opening 2 rows:

compound,strain or isolate,cells,value
COc1cccc(N2CCN(C3=Nc4c(F)cccc4[C@H](CC(=O)O)N3c3cc(C(F)(F)F)ccc3OC)CC2)c1,Clinical isolate 11,,0.0011 µM
O=C(NCc1ccc(Cl)cc1)c1c[nH]c2ccc(C#CCO)cc2c1=O,NEW,,1.2 µM